Data as given in ChEMBL document CHEMBL6109097, “Structure-based design of novel 2,4,5-trisubstituted pyrimidine derivatives as potent HIV-1 NNRTIs by exploiting the tolerant regions in NNTRIs binding pocket” (Eur J Med Chem, 2025).

Biological target: Human immunodeficiency virus type 1 reverse transcriptase (Human immunodeficiency virus 1, UniProt Q72547)
Experiment: Inhibition of wild type HIV-1 reverse transcriptase assessed as reduction in biotin-dUTP incorporation in cDNA preincubated with compound for 1 hr in presence of biotin-labeled dNTPs by ELISA

Cc1cc(C#N)cc(C)c1Oc1nc(Nc2ccc(C#N)cc2)nc(N)c1Br [ETRAVIRINE]
IC50: 20 nM
